One compound from ChEMBL document CHEMBL3045666, “The phytotoxicity of natural tetramic acid derivatives” (Pest Manag Sci, 2011) can be followed below.

pIC50: −log10 of the molar value.

The term pIC50 denotes the negative decadic logarithm of the IC50, by convention in mol/L.

The test in a line: Inhibition of 4-hydroxyphenylpyruvate dioxygenase.

The compound `CC[C@H](C)[C@H]1NC(=O)/C(=C(\C)O)C1=O` gave a pIC50 of 4.74.
